Measured values from several laboratories, pooled; numbers as filed in NIAID ChemDB.

Common to all: whole-cell or culture tests; species: HIV-1; endpoint: EC50

Blank or dashed fields: not listed here.

structure | cells | strain or isolate | changes | result
O=C1NS(=O)(=O)N(Cc2ccccc2)c2sc(-c3ccccc3)cc21 | CEM |  |  | >400 µg/mL
O=C1Nc2ccc(Cl)cc2[C@@](C#CC2CC2)(C(F)(F)F)[C@H]1O | MT-2 | RF |  | <0.637 µM
Cc1cn([C@@H]2O[C@H](COS(=O)(=O)c3ccccc3)C3(OS(=O)(=O)C=C3N)[C@H]2O[Si](C)(C)C(C)(C)C)c(=O)n(C)c1=O | CEM + CEM/0 |  |  | >6.2 µM
Nc1ccc(CO[C@H]2C(=O)Nc3ccc(Cl)cc3[C@@]2(C#CC2CC2)C(F)(F)F)cc1F | MT-2 | RF |  | <0.026 µM
C[C@H]1O[C@](C#CC2CC2)(C(F)(F)F)c2cc(Cl)ccc2NC1=O |  |  | RT-K103N | <1.13 µM
FC(F)(Sc1ncccn1)c1nc2ccccc2o1 |  | CALO | RT-T139I | 3.2 µM
CC(C)CCOC1(C(F)(F)F)OC(=O)Nc2ccc(Cl)cc21 |  |  |  | <0.01007 µM
O=C1Nc2ccc(Cl)cc2[C@@](C#CC2CC2)(C(F)(F)F)O[C@H]1CC(F)(F)F | MT-2 | RF |  | <0.0168 µM
CCCn1c(Cl)c([N+](=O)[O-])c(=O)[nH]c1=O | MT-4 | IIIB |  | >62.4 µg/mL
Nc1ccc(CO[C@H]2C(=O)Nc3ccc(Cl)cc3[C@@]2(C#CC2CC2)C(F)(F)F)cc1 | MT-2 |  | RT-K103N | <1.082 µM
CCCn1c(Sc2ccncc2)c([N+](=O)[O-])c(=O)[nH]c1=O | MT-4 | IIIB |  | >76.63 µg/mL
Cc1cn([C@@H]2O[C@H](COC(=O)N(C)C)C3(OS(=O)(=O)C=C3N)[C@H]2O[Si](C)(C)C(C)(C)C)c(=O)n(C)c1=O | MT-4 |  |  | >50 µM
C=CCOC1(C(F)(F)F)OC(=O)Nc2ccc(F)c(F)c21 |  |  |  | <0.00647 µM
O=C(NCc1ccc(F)cc1)C1C(=O)N(O)C(=O)c2ccccc21 | PBMC | BaL |  | 0.257 µM
Cn1c(Sc2ccccc2)c([N+](=O)[O-])c(=O)n(C)c1=O | MT-4 | IIIB |  | >81.2 µg/mL
O=C1Nc2ccc(Cl)cc2[C@@](C#CC2CC2)(C(F)(F)F)[C@H]1OCc1ccncc1 | MT-2 | RF |  | <0.019 µM
CC(C)=CCOC1(C(F)(F)F)OC(=O)Nc2ccc(F)c(F)c21 |  |  |  | <0.00154 µM
Nc1ccc([C@H]2C[C@H](O)[C@@H](CO)O2)c(F)c1 | CEM |  |  | >250 µM
Cc1cn([C@@H]2O[C@H](CN3CCNCC3)C3(OS(=O)(=O)C=C3N)[C@H]2O[Si](C)(C)C(C)(C)C)c(=O)n(C)c1=O | CEM + CEM/0 |  |  | ≥50 µM
CC(=O)OCCOCN1c2cc(-c3ccccc3)sc2C(=O)N(Cc2ccccc2)S1(=O)=O | CEM |  |  | >400 µg/mL
CCCn1c(Sc2ccccc2)c([N+](=O)[O-])c(=O)[nH]c1=O | MT-4 | IIIB |  | >72.9 µg/mL
CC[C@@H]1O[C@](C#CC2CC2)(C(F)(F)F)c2cc(Cl)ccc2NC1=O |  |  | RT-K103N | <0.139 µM
Cc1cn([C@@]2(C)CO[C@@H](CO)O2)c(=O)[nH]c1=O | MT-4 |  |  | >100 µM
Nc1nc2c(ncn2COC(CO)CO)c(=O)[nH]1 | CEM |  |  | >400 µg/mL
Cc1cn([C@H]2C=C[C@@H](CO)O2)c(=O)[nH]c1=O | CEM + CEM-SS |  |  | 0.059 µM
O=C1Nc2ccc(Cl)cc2C(C#Cc2ccccn2)(C(F)(F)F)O1 |  |  | RT-K103N | <0.064 µM
O=C1c2sc(-c3ccccc3)cc2NS(=O)(=O)N1Cc1ccccc1 | CEM |  |  | >400 µg/mL
Cc1ccnc(SC(F)(F)c2nc3ccccc3o2)n1 |  | IIIB |  | 0.067 µM
O=C1Nc2ccc(Cl)cc2C(C#Cc2ccncc2)(C(F)(F)F)O1 |  |  |  | <0.1021 µM
O=C1c2cc(-c3ccccc3)sc2N(Cc2ccccc2)S(=O)(=O)N1CCOCCO | CEM |  |  | >400 µg/mL
O=C1CO[C@](C#Cc2ccccc2)(C(F)(F)F)c2cc(Cl)ccc2N1 |  |  | RT-K103N | <4.1 µM
COP(=O)(c1cc(C)cc(CCC#N)c1)c1c(C(N)=O)[nH]c2ccc(Cl)cc12 | MT-2 | BH10 |  | 0.0011 µM
O=C1Nc2ccc(F)c(F)c2C(C#Cc2ccsc2)(C(F)(F)F)O1 |  |  | RT-K103N | <0.1559 µM
COC[C@@H](c1ccc(C(F)(F)F)cc1)N1CCN(C2(C)CCN(C(=O)c3c(C)ncnc3C)CC2)C[C@@H]1C | PBMC | R14/S | M518V F519L V535M | 0.00019 µM
O=C1Nc2ccc(Cl)cc2[C@@](C#CC2CC2)(C(F)(F)F)[C@H]1OCc1ccc(F)cc1 | MT-2 | RF |  | <0.112 µM
C[C@]1(n2ccc(N)nc2=O)CO[C@@H](CO)O1 | MT-4 |  |  | >100 µM
C=CCOC[C@H]1O[C@@H](n2cc(C)c(=O)n(C)c2=O)[C@H](O[Si](C)(C)C(C)(C)C)C12OS(=O)(=O)C=C2N | MT-4 |  |  | 11.1 ± 10 µM
O=C1Nc2ccc(Cl)cc2C(C#Cc2cncs2)(C(F)(F)F)O1 |  |  | RT-K103N | <0.1062 µM
Cn1c(Sc2ccncc2)c([N+](=O)[O-])c(=O)n(C)c1=O | MT-4 | IIIB |  | >11.6 µg/mL
O=C1Nc2ccc(Cl)cc2[C@@](C#CC2CC2)(C(F)(F)F)[C@H]1NCc1ccccc1 | MT-2 | RF |  | <0.218 µM
C=CCOC(=O)OC[C@H]1O[C@@H](n2cc(C)c(=O)n(C)c2=O)[C@H](O[Si](C)(C)C(C)(C)C)C12OS(=O)(=O)C=C2N | MT-4 |  |  | >10 µM
C[C@@]1(n2ccc(=O)[nH]c2=O)CO[C@@H](CO)O1 | MT-4 |  |  | >100 µM
O=C1CC(C#CC2CC2)(C(F)(F)F)c2cc(Cl)ccc2N1 | MT-2 | RF |  | <0.014 µM

The first 4 rows once more:

| structure | cells | strain or isolate | changes | result |
|---|---|---|---|---|
| O=C1NS(=O)(=O)N(Cc2ccccc2)c2sc(-c3ccccc3)cc21 | CEM |  |  | >400 µg/mL |
| O=C1Nc2ccc(Cl)cc2[C@@](C#CC2CC2)(C(F)(F)F)[C@H]1O | MT-2 | RF |  | <0.637 µM |
| Cc1cn([C@@H]2O[C@H](COS(=O)(=O)c3ccccc3)C3(OS(=O)(=O)C=C3N)[C@H]2O[Si](C)(C)C(C)(C)C)c(=O)n(C)c1=O | CEM + CEM/0 |  |  | >6.2 µM |
| Nc1ccc(CO[C@H]2C(=O)Nc3ccc(Cl)cc3[C@@]2(C#CC2CC2)C(F)(F)F)cc1F | MT-2 | RF |  | <0.026 µM |

Rows are shuffled and stem from different studies. ECn is the concentration giving n% inhibition of infection, replication or growth.